A mixed list of measured activities; the numbers were collected in NIAID ChemDB.

All rows: whole-cell or culture tests; species: HIV-1; endpoint: fold resistance

An empty or dashed field is not shown. Fold resistance has wild type as its base. Rows are shuffled and stem from different studies.

SMILES,strain,mutations,read by,result
CC(C)(C)C(=O)c1sc(C(=O)NCc2ccccc2)c(O)c1O,,IN-T66I S153Y N155S,,>43
Fc1cccc(F)c1C1SCc2nc3ccccc3n21,IIIB,RT-Y188H,cytopathic effect / MTT,2.99
CC(C)(C)NC(=O)[C@@H]1C[C@@H]2CCCC[C@@H]2CN1C[C@@H](O)[C@H](Cc1ccccc1)NC(=O)[C@H](CC(N)=O)NC(=O)c1ccc2ccccc2n1,BMS-186318-resistant (PR A71T V82A),PR-A71T V82A,,2.03
CC(C)(C)C(=O)c1sc(C(=O)NCCc2ccccc2)c(O)c1O,,INTG-T66I,,0.25
Cc1ccccc1Cc1cccc(C(=O)CC(=O)C(=O)O)c1,,INTG-T66I M154I,p24,1.5
Nc1nc2c(ncn2[C@H]2CO[C@@H](CO)O2)c(=O)[nH]1,Clinical isolate,RT-Y181C,,~1
Nc1nc2c(ncn2[C@H]2CO[C@@H](CO)O2)c(=O)[nH]1,RT-41L 69[SS] 215Y,RT M41L T69SS insertion T215Y,,2
CC(C)(C)NC(=O)[C@@H]1CN(C(C)(C)c2cc3cnccc3o2)CCN1C[C@@H](O)C[C@@H](Cc1ccccc1)C(=O)N[C@H]1c2ccccc2C[C@H]1O,Q-60C(PR-L10I S37N R41K M46I I54V I62V L63P A71V V77I V82A L90M I93L),PR-L10I S37N R41K M46I I54V I62V L63P A71V V77I V82A L90M I93L,,>66.7
CC(C)=CCOc1cc(NC(=S)c2ccoc2C)ccc1Cl,UC781-RS(RT-Y181C,RT-Y181C,,111
O=C(NCc1ccc(F)cc1)c1nc(N2CCCCS2(=O)=O)c2cccnc2c1O,,INTG-S153Y N155S,p24,11
COc1ccccc1C(=O)Nc1ccc(Cl)c(C(=O)OC(C)C)c1,UC781-RS(RT-Y181C,RT-Y181C,,7.77
CC(C)Oc1ccc(Cc2ccccc2)cc1C(=O)CC(=O)C(=O)O,,INTG-S153Y,,1
Fc1cccc(F)c1C1SCc2nc3ccccc3n21,UC781-RS(RT-Y181C,RT-Y181C,,>20.3
Cc1cccc(C)c1OCC(=O)N[C@@H](Cc1ccccc1)[C@@H](O)C[C@H](Cc1ccccc1)NC(=O)[C@H](C(C)C)N1CCCNC1=O,,RT-L100I K103N,,4294
CC(=O)c1ccc(C)cc1NC(C(N)=O)c1c(Cl)cccc1Cl,UC781-RS(RT-Y181C,RT-Y181C,,>100
CCc1cc([C@](C#CC2CC2)(OCc2ccccc2)C(F)(F)F)c(=O)[nH]c1C,,RT-K103N P225H,,6.15

For reference, 2 entries again:

SMILES,strain,mutations,read by,result
O=C(NCc1ccc(F)cc1)c1nc(N2CCCCS2(=O)=O)c2cccnc2c1O,,INTG-S153Y N155S,p24,11
CCc1cc([C@](C#CC2CC2)(OCc2ccccc2)C(F)(F)F)c(=O)[nH]c1C,,RT-K103N P225H,,6.15